## Percent effect of library compounds

Mtb glucose medium: 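Phenotypic screen: M. tuberculosis growth, glucose 7H9 medium, 3 days; the read-out is not stated. Compounds at 500 µM. Higher reads as more growth inhibition (inferred: compounds with an IC50 in retests scored well above the rest). About 18,000 compounds were tested under these conditions; 7.9% (about 1,400) showed 50% or more at least once.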
Mtb cholesterol medium: 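Growth of Mycobacterium tuberculosis over 4 days (cholesterol / DPPC medium with tyloxapol); the read-out is not stated. Tested at 500 µM. Higher reads as more growth inhibition (inferred: compounds with an IC50 in retests scored well above the rest). Size under these conditions: about 18,000 compounds, about 900 of them at 50% or above in at least one test.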

Values are the deposited “Percent Effect”, in %. The controls that fix the scale are not given in the record; negative values are as filed. The entries come from a sample that favours strong results. A dash means the value is not listed here; it may have been measured.

Compound | Mtb glucose medium | Mtb cholesterol medium
NCc1noc2c1CCCC2 | - | 79.5%
O=c1cc(N2CCCC2)cnn1CC1CCNC1 (stereo unspecified) | 2.003% | -
CN(CC1CCOCC1)C(=O)NCc1ccco1 | 54.87% | -
COC(=O)C(C)(CNC(C)=O)c1ccccc1 (stereo unspecified) | - | -0.6342%
COC(=O)n1ncc(C#N)c1N | - | 17.57%
O=c1[nH]c2ccc(NCc3ccncc3)cc2[nH]1 | 21.9% | -
COC(=O)c1ccc2oc(=O)[nH]c2c1 | - | 9.084%
COc1ncccc1CN(C)S(=O)(=O)c1cccs1 | 48.34% | 51.08%
O=C1NCCCCC1N1CCNCC1 (stereo unspecified) | - | 0.1373%
COCc1noc([C@@H]2CN(C3CCC3)C[C@H]2CO)n1 | -5.504% | -
CSC(C)C(=O)NCc1ccnc(N2CCOCC2)c1 (stereo unspecified) | 21.04% | -
NCCc1ccc2cc[nH]c2c1 | 55.81% | 13.92%
CN(Cc1ccccc1)C1=NS(=O)(=O)c2ccccc21 | - | -16.78%
COCc1[nH][nH]c(=O)c1CCN | -0.8988% | -
COc1cc(F)c(C(C)=O)cc1OC | - | -9.899%
O=S1(=O)C[C@H]2CNC[C@@H](C1)[C@@H]2O | -5.152% | -
NC(=O)c1cccc(NC(=O)Cc2ccc(F)cc2)c1 | 39.36% | -
NCCNS(=O)(=O)c1ccccc1-c1ccccc1 | 29.04% | -5.72%
CC(C)N1CC(O)C1 | - | -2.817%
CCC(NC(=O)CCSC)c1ncnn1C (stereo unspecified) | -8.58% | -
CCOc1ccc(C(C)=O)cc1N1C(=O)C=CC1=O | -0.6525% | 12.44%
N[C@H]1CN(C(=O)Cn2cc(Cl)cn2)C[C@@H]1C1CC1 | - | 13.53%
CCCS(=O)(=O)NCCN1CCC(CO)CC1 | 5.51% | -
COc1cccc(S(=O)(=O)CCN(C)CCO)c1 | 96.44% | 96.74%
CCO[C@H]1CN(Cc2csc(C(C)=O)c2)C[C@@H]1O | - | 17.03%
CN(c1cccc(C(N)=O)c1)S(=O)(=O)c1ccccc1 | 35.49% | 25.83%
CC(C(=O)Nc1cc(Cl)c(Cl)cn1)S(C)(=O)=O (stereo unspecified) | -3.54% | -
CCOC(=O)c1ccc(S(=O)(=O)N[C@@H](C)CO)cc1 | - | -4.726%
CN(Cc1ccc(S(C)(=O)=O)cc1)CC1COCCO1 (stereo unspecified) | - | 0.8498%
NCCNS(=O)(=O)c1ccc(F)c(C(F)(F)F)c1 | 79.86% | 45.71%
Cc1ccnc(NCCS(=O)(=O)NCC2CCC2)c1 | 72.24% | 68.25%
Cc1n[nH]cc1CNCC(C)(C)O | - | -1.188%
Cc1ccc(C2CCCCN2)o1 (stereo unspecified) | - | -0.9154%
COCC(C)Oc1ccc(Cl)cc1S(N)(=O)=O (stereo unspecified) | 23.74% | 11.83%
Cc1nonc1CC(=O)N1CC[C@H]2CNC[C@H]21 | 9.538% | -
OCc1ccc(OCCF)cn1 | -13.74% | -
Cc1ccc(S(=O)(=O)N(C)C(C)CN)cc1 (stereo unspecified) | 44.54% | -
CCOc1nnc(CNCC2CCN(CCO)CC2)s1 | - | -9.97%
CCCNC(=O)CNC(=O)c1ccc(O)nc1 | - | 10.59%
CC(=O)NC1CCN(CC(=O)Nc2ccccc2)CC1 | 6.734% | -
OC(CN1CCN(c2ccccn2)CC1)C1CC1 (stereo unspecified) | -8.374% | -
FC(F)(F)Cn1cnc(C2COCCN2)n1 (stereo unspecified) | - | -15.3%
CN(C)C(=O)N1CCN(C(=O)C2CCCNC2)CC1 (stereo unspecified) | 8.842% | -
Cc1cc(CN)c(C)s1 | -0.1272% | -
CCN1CCCN(C(=O)c2ccc(C)c(F)c2)CC1 | - | -6.977%
CC(C)CN1CCNC(=O)C1 | 1.014% | -
CN(C)C(=O)CN1CCOC(CCc2ccccc2)C1 (stereo unspecified) | 50.94% | -
CC1(C)CC(CN)CCO1 (stereo unspecified) | 5.983% | -
CC1(CNC(=O)CCOc2ccccc2)COC1 | 16.29% | -
OC[C@H]1CCCCN1CC(O)COCc1ccco1 (stereo partly specified) | 6.282% | -
COCCCNC(=O)CN(C)c1ccc2nccn2n1 | 6.053% | -
NC(=O)CC1C(=O)NCCN1CCCc1ccccc1 (stereo unspecified) | 17.25% | -
COCCN(C)CCC(N)c1ccccc1 (stereo unspecified) | 15.76% | -
COCCNC(=O)C1CCN(Cc2ccccc2)CC1 | 11.68% | -
CC(=O)c1cc(CN2CC(N3CCOCC3)C2)cs1 | - | 1.989%
NCCC(=O)Nc1ccccc1 | 2.015% | -8.085%
CCn1c(CN(C)CC(=O)NC)nnc1[C@H]1C[C@H](N)C1 | - | 1.015%
CN1CCN(C)C(CC(=O)NCc2ccoc2)C1 (stereo unspecified) | 3.617% | -
NCCNC(=O)c1nc(-c2ccccc2)no1 | 11.72% | -
Cc1c(C(=O)NC2CCN(S(C)(=O)=O)CC2)cnn1C | - | -5.288%
CS(=O)(=O)Cc1ccccc1Br | -4.897% | -
Cc1cc(C)cc(C2(C(=O)N(C)CC(N)=O)CCC2)c1 | - | 2.298%
O=C1OCCN1C1CCNCC1 | -5.226% | -
Cc1nscc1C(=O)Nc1ccc(C(N)=O)cc1F | - | 11.65%
CCN(CCn1cccn1)C1CCN(C(C)=O)CC1 | -0.05639% | -
OC(CNc1ncnc2ncccc12)C1CCCC1 (stereo unspecified) | 28.07% | -
OC1CCN(C2COC2)CC1 | - | 0.6695%
COc1cccc(C(N)C(C)C)n1 (stereo unspecified) | -8.135% | -
CC(=O)NCC(=O)Nc1ccc2cccc(Cl)c2n1 | - | -9.39%
CCNC(=O)c1nnsc1-c1ccc(C)cc1 | 40.97% | -
CC(=O)c1cccc(C(=O)NC(C)c2nc(C)c[nH]2)c1 (stereo unspecified) | 9.206% | -
N#Cc1c(F)cccc1NCCN | 13.02% | 17.63%
O=C(c1ccccc1C(F)(F)F)N1CCCNCC1 | 25.8% | -

9 of the entries, repeated:

{"compound": "CN(C)C(=O)N1CCN(C(=O)C2CCCNC2)CC1", "stereo": "stereo unspecified", "Mtb glucose medium": 8.842}
{"compound": "COC(=O)c1ccc2oc(=O)[nH]c2c1", "Mtb cholesterol medium": 9.084}
{"compound": "COc1ncccc1CN(C)S(=O)(=O)c1cccs1", "Mtb glucose medium": 48.34, "Mtb cholesterol medium": 51.08}
{"compound": "CCCS(=O)(=O)NCCN1CCC(CO)CC1", "Mtb glucose medium": 5.51}
{"compound": "CN(Cc1ccc(S(C)(=O)=O)cc1)CC1COCCO1", "stereo": "stereo unspecified", "Mtb cholesterol medium": 0.8498}
{"compound": "NCCNS(=O)(=O)c1ccccc1-c1ccccc1", "Mtb glucose medium": 29.04, "Mtb cholesterol medium": -5.72}
{"compound": "CCn1c(CN(C)CC(=O)NC)nnc1[C@H]1C[C@H](N)C1", "Mtb cholesterol medium": 1.015}
{"compound": "CC(=O)NCC(=O)Nc1ccc2cccc(Cl)c2n1", "Mtb cholesterol medium": -9.39}
{"compound": "CN(C)C(=O)CN1CCOC(CCc2ccccc2)C1", "stereo": "stereo unspecified", "Mtb glucose medium": 50.94}

Data taken from ChEMBL document CHEMBL3988442, “University of Dundee, Small-Polar-MMV Screening Library” (2021).